Anti-infective test results gathered from many reports (values: NIAID ChemDB through PubChem).

Common to all: host cell toxicity; cell line: Huh7; read by: MTT; measure: CC50

CCn is the concentration with n% toxicity to the cells.

SMILES | result
CC(C)C(=O)O[C@@H]1[C@@H](CO)O[C@@H](c2ccc3c(N)ncnn23)[C@]1(C)O | >100 µM
C=C1C(COP(=O)(N[C@@H](C)C(=O)OC)Oc2ccccc2)C(O)C(F)C1n1cnc2c(N)ncnc21 | >300 µM
NC(=O)[C@@H]1O[C@@H]1C(=O)Nc1ccc(Br)cc1 | 17 µM
O=C(NCc1ccccc1Cl)c1nc2ccccc2c(=O)n1O | 224.8 µM
NC(=O)[C@@H]1O[C@@H]1C(=O)Nc1ccc(Oc2ccc(N)cc2)cc1 | >100 µM
O=C(O)C(=O)CC(=O)c1ccccc1 | 186.8 µM
COC(=O)C(C)(C)NP(=O)(OC[C@H]1O[C@@H](c2cnc3c(=O)[nH]c(N)nn23)[C@](C)(O)[C@@H]1O)Oc1cccc2ccccc12 | >100 µM
Cc1ccc(Sc2ccccc2)c(Nc2ccnc3nc(C)ccc23)c1 | 8.6 µM
NC(=O)[C@@H]1O[C@@H]1C(=O)O | >100 µM
CC(C)[C@H](NP(=O)(OC[C@H]1O[C@@H](c2cnc3c(=O)[nH]c(N)nn23)[C@](C)(O)[C@@H]1O)Oc1cccc2ccccc12)C(=O)OCc1ccccc1 | >100 µM
Nc1ccn([C@@H]2CS[C@H](CO)O2)c(=O)n1 | >300 µM
O=C(NCc1ccc(F)cc1)c1nc2ccccc2c(=O)n1O | 194.1 µM
Cc1ccc(Sc2ccc(O)cc2)c(Nc2ncnc3nc(N4CCOCC4)ncc23)c1 | >50 µM
Nc1ccc(CNC(=O)c2nc3ccccc3c(=O)n2O)cc1 | >250 µM
CC(C)(C)CC[C@@]1(C)C(=O)C(C2=NS(=O)(=O)c3cc(NS(C)(=O)=O)ccc3N2)=C(O)c2ccccc21 | 21.7 µM
C[C@@]1(O)[C@H](O)[C@@H](CO)O[C@H]1c1cnc2c(=O)[nH]c(N)nn12 | >100 µM
CCc1ccc2c(Nc3cc(C)ccc3Sc3ccccc3)ncnc2n1 | 22.7 µM
O=C(NCCc1ccccc1)c1nc2ccccc2c(=O)n1O | >250 µM
CC(=O)Nc1ccc(Sc2ccc(C)cc2Nc2ncnc3nc(C(C)C)ccc23)cc1 | 28.8 µM
O=C(NCc1ccccc1)c1nc2ccccc2c(=O)n1O | >250 µM
NC(=O)[C@@H]1O[C@@H]1C(=O)Nc1ccc(OCc2ccccc2)c(Cl)c1 | 12.6 µM
CC1=CN(c2ccc([N+](=O)[O-])cc2)[C@@H](c2ccc(Cl)cc2)[C@@H](C)C1=O | >50 µM
Cc1ccc(NC(=O)[C@H]2O[C@H]2C(N)=O)cc1C | >100 µM
C[C@@]1(O)[C@H](O)[C@@H](CO)O[C@H]1c1ccc2c(N)ncnn12 | >100 µM

The last 3 rows once more:

SMILES | result
CC1=CN(c2ccc([N+](=O)[O-])cc2)[C@@H](c2ccc(Cl)cc2)[C@@H](C)C1=O | >50 µM
Cc1ccc(NC(=O)[C@H]2O[C@H]2C(N)=O)cc1C | >100 µM
C[C@@]1(O)[C@H](O)[C@@H](CO)O[C@H]1c1ccc2c(N)ncnn12 | >100 µM

Rows are shuffled and stem from different studies.